By UniProt entry, the sequences of proteins in these tests, tags left out.
UniProt P9WPC9, whole entry: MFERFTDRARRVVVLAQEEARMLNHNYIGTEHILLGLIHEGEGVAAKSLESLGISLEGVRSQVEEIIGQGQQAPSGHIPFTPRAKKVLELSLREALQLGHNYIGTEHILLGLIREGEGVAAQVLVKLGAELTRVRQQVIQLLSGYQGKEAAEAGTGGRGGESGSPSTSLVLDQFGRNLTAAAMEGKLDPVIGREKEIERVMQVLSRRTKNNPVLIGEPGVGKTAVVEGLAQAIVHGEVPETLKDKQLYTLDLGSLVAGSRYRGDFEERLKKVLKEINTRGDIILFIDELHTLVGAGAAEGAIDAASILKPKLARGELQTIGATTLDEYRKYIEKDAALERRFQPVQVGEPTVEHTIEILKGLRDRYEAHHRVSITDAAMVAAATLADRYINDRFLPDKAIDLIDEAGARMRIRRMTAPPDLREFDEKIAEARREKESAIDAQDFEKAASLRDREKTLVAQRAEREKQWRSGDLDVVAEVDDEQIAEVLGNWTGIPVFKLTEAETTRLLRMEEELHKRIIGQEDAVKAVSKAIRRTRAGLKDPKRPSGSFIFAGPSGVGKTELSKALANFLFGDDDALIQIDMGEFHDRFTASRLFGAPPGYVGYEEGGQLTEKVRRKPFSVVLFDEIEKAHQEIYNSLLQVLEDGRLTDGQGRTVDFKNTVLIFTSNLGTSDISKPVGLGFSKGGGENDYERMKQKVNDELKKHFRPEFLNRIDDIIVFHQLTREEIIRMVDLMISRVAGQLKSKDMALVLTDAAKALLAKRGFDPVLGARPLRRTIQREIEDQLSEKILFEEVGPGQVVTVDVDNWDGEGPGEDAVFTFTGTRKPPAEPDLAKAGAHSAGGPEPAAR

In paper PMC9305358 (The Journal of Biological Chemistry, 2022):

Biological target: ClpC1-WT (Mycobacterium tuberculosis, UniProt P9WPC9)

## casein
  increase of ClpC1 ATPase activity by casein together with ClpP1P2: fourfold
